Values from PubChem BioAssay AID624099 (ICCB-Longwood, 2012).

- Assay: 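Host factors E2 relies on to silence an HPV18 LCR reporter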 (primary screen)
- System: human C33A cervical carcinoma cells (HPV-negative) stably expressing BPV1 E2 and an HPV18 LCR luciferase reporter
- Reagents: siRNA pool against human genes, 40 nM
- Duration: 72 h
- Measurement: 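Per-well luciferase luminescence, z-scored on each plate against the plate mean and SD with control wells left out, then averaged across three replicate plates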
- Direction: mean z-score and z-score: higher = stronger reporter signal, weaker E2 silencing
- Call rule: 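Mean z ≥ 2 together with z ≥ 2 in two or more of the three replicates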
This is one part, drawn at random, of about 21,000 reagents tested. 497 of all reagents (2.4%) were called active. 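Higher z means weaker E2 silencing; only reporter increases were scored, and knock-downs that hurt cell survival may mask genuine repressor factors.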 Reagents against one gene are numbered here.

With knock-down of PCNX1 (pecanex 1) the results were mean z-score 1.02; z-score, replicate A = 1.01; z-score, replicate B = 0.86; z-score, replicate C = 1.2; inactive. Silencing of DDX46 (DEAD-box helicase 46) gave: mean z-score -0.34; z-score, replicate A = -0.66; z-score, replicate B = 0.34; z-score, replicate C = -0.7; inactive. For NUDT1 (nudix hydrolase 1), the entry reads mean z-score 1.85; z-score, replicate A = 2.32; z-score, replicate B = 1.57; z-score, replicate C = 1.65; inactive. For BSG (basigin (Ok blood group)), the entry reads mean z-score -0.38; z-score, replicate A = -0.13; z-score, replicate B = -0.74; z-score, replicate C = -0.28; inactive. Against FFAR2 (free fatty acid receptor 2) the deposit lists mean z-score 1.01; z-score, replicate A = 1.3; z-score, replicate B = 0.81; z-score, replicate C = 0.93; inactive. After knock-down of LINC02433 (long independently transcribed non-coding RNA 2433), the record shows mean z-score -0.53; z-score, replicate A = -0.38; z-score, replicate B = -0.48; z-score, replicate C = -0.73; inactive.

Knock-down of MEI1 (meiotic double-stranded break formation protein 1) #1 resulted in: mean z-score -1.1; z-score, replicate A = -1.3; z-score, replicate B = -0.92; z-score, replicate C = -1.07; inactive. After knock-down of MEI1 (meiotic double-stranded break formation protein 1) #2, the record shows mean z-score 0.6; z-score, replicate A = 0.67; z-score, replicate B = 0.55; z-score, replicate C = 0.58; inactive. Against ZDHHC24 (zDHHC palmitoyltransferase 24), the entry reads mean z-score -1.38; z-score, replicate A = -1.34; z-score, replicate B = -1.14; z-score, replicate C = -1.67; inactive.

Entries listed so far whose target name begins with M or m:
MEI1 (meiotic double-stranded break formation protein 1) #1 → mean z-score: -1.1; z-score, replicate A: -1.3; z-score, replicate B: -0.92; z-score, replicate C: -1.07; Outcome: inactive
MEI1 (meiotic double-stranded break formation protein 1) #2 → mean z-score: 0.6; z-score, replicate A: 0.67; z-score, replicate B: 0.55; z-score, replicate C: 0.58; Outcome: inactive

More entries follow.
Depletion of WDR18 (WD repeat domain 18) gave: mean z-score -0.51; z-score, replicate A = -0.78; z-score, replicate B = -0.6; z-score, replicate C = -0.15; inactive. LOC388205 (retired record) showed mean z-score -0.21; z-score, replicate A = -0.21; z-score, replicate B = -0.61; z-score, replicate C = 0.19; inactive. For LATS1 (large tumor suppressor kinase 1), the values are mean z-score 1.76; z-score, replicate A = 1.78; z-score, replicate B = 1.28; z-score, replicate C = 2.2; inactive. Silencing of MOCOS (molybdenum cofactor sulfurase) came out at: mean z-score 0.05; z-score, replicate A = -0.03; z-score, replicate B = 0.1; z-score, replicate C = 0.07; inactive. After knock-down of PALS1 (protein associated with LIN7 1, MAGUK p55 family member), the screen gave mean z-score -0.97; z-score, replicate A = -1.03; z-score, replicate B = -1.14; z-score, replicate C = -0.74; inactive. After knock-down of PLEKHF2 (pleckstrin homology and FYVE domain containing 2), the record shows mean z-score 0.83; z-score, replicate A = 0.57; z-score, replicate B = 1.07; z-score, replicate C = 0.84; inactive.

Knock-down of LOC100134040 gave: mean z-score -0.62; z-score, replicate A = -0.59; z-score, replicate B = -1.05; z-score, replicate C = -0.24; inactive. Silencing of LOC389275 (retired record) resulted in: mean z-score 0.29; z-score, replicate A = -0.15; z-score, replicate B = 0.31; z-score, replicate C = 0.7; inactive. TDG (thymine DNA glycosylase) showed mean z-score 0.8; z-score, replicate A = 0.79; z-score, replicate B = 0.65; z-score, replicate C = 0.97; inactive. After knock-down of LOC390468 (retired record) the results were mean z-score -0.98; z-score, replicate A = -1.22; z-score, replicate B = -1.07; z-score, replicate C = -0.65; inactive. Against DET1 (DET1 partner of COP1 E3 ubiquitin ligase), the values are mean z-score 1.02; z-score, replicate A = 0.94; z-score, replicate B = 0.42; z-score, replicate C = 1.7; inactive. For UBLCP1 (ubiquitin like domain containing CTD phosphatase 1), the values are mean z-score 0.52; z-score, replicate A = 0.51; z-score, replicate B = 0.34; z-score, replicate C = 0.71; inactive.
